Test results taken from PubChem BioAssay AID2391 (Southern Research Specialized Biocontainment Screening …, 2010).
The list shows a part of the results. Results with a measured potency or affinity are listed apart. Active and inactive are the calls of the source. The rule behind the calls is not given here.

Assay: inhibition of RSV-induced cytopathic effect – HEp-2 cells, primary 10 µM value included (AID 2391)
Settings: at 10 µM, hits give high values

| SMILES | CPE inhibition |
| --- | --- |
| O=C(NCC1(N2CCOCC2)CCCCC1)c1cc2ccccc2o1 | inactive: -0.65% |
| Cc1cc(C)cc(N(C(=O)c2ccccc2)C2CCN(C(=O)OC(C)(C)C)CC2)c1 | inactive: 0.13% |
| O=C(NCC1(N2CCCCC2)CCCCC1)c1ccc(Cl)nc1 | inactive: -1.79% |
| CCOC(=O)N1CCC(Nc2ccc(OC)cc2)CC1 | inactive: -0.21% |
| COc1ccc(Cl)cc1C(=O)NCC1(N2CCOCC2)CCCCC1 | inactive: 0.97% |
| O=C(NCC1(N2CCCCC2)CCCCC1)c1ccc(Cl)s1 | inactive: -0.29% |
| O=C(OC1CN2CCC1CC2)C1c2ccccc2Oc2ccccc21 (stereo unspecified) | inactive: -0.58% |
| O=C(NCC1(N2CCCCC2)CCCCC1)c1cccs1 | inactive: -0.36% |
| O=C(NCC1(N2CCCCC2)CCCCC1)c1ccc(=O)[nH]c1 | inactive: 0.76% |
| COc1ccc(C(=O)NCC2(N3CCCCC3)CCCCC2)c(OC)c1OC | inactive: -0.48% |
| CC(C)(C)OC(=O)N1CCC(N(C(=O)c2ccccc2)c2ccc(F)cc2)CC1 | inactive: 3.99% |
| COc1ccc(C(=O)NCC2(N3CCCCC3)CCCCC2)cc1 | inactive: 0.47% |
| CSc1ccccc1C(=O)NCC1(N2CCCCC2)CCCCC1 | inactive: 1.65% |
| Cc1ccc(OCC(C)C)c(CN(CCCl)CCCl)c1 | inactive: 2.78% |
| CCOC(=O)N1CCC(Nc2cccc(C)c2)CC1 | inactive: 1.7% |
| COc1cc(C(=O)NCC2(N(C)C)CCCCC2)ccc1OC(F)F | inactive: 0.62% |
| CCOc1ccc(C)cc1CN(CCCl)CCCl | inactive: 0.76% |
| CCOC(=O)N1CCC(Nc2ccc(F)cc2)CC1 | inactive: 0.41% |
| O=C(NCC1(N2CCCCC2)CCCCC1)c1ccc(F)cc1 | inactive: 0.74% |
| O=C(NCC1(N2CCCCC2)CCCCC1)c1cccc(C(F)(F)F)c1 | inactive: 0.75% |
| CN1CCN(CCOC(=O)C(O)(c2ccccc2)c2ccccc2)CC1 | inactive: 3.19% |

| SMILES | CPE inhibition |
| --- | --- |
| COc1ccc(NC2CCN(C(=O)OC(C)(C)C)CC2)cc1 | inactive: -0.64% |
| COc1cc(C(=O)NCC2(N3CCCCC3)CCCCC2)ccc1OC(F)F | inactive: 0.65% |
| O=C(NCC1(N2CCOCC2)CCCCC1)c1cc(=O)[nH]c2ccccc12 | inactive: 0.56% |
| O=C(NCC1(N2CCCCC2)CCCCC1)c1ccc(OC(F)F)cc1 | inactive: 0.09% |
| O=C(NCC1(N2CCCCC2)CCCCC1)c1cccc([N+](=O)[O-])c1 | inactive: -0.94% |
| N#CC1(Nc2ccccc2)CCN(CCc2ccccc2)CC1 | inactive: -1.63% |
| CCN1CCC(Nc2ccc(Cl)cc2)CC1 | inactive: 1.61% |
| CN1CCC(Nc2cccc(F)c2)CC1 | inactive: -0.06% |
| O=C(NCC1(N2CCCCC2)CCCCC1)c1cncc(Br)c1 | inactive: -0.54% |
| CCCOc1ccc(C(=O)NCC2(N(C)C)CCCCC2)cc1OC | inactive: 0.87% |
| CN(C)c1cccc(C(=O)NCC2(N3CCCCC3)CCCCC2)c1 | inactive: -0.56% |
| COc1ccc(CN(CCCl)CCCl)cc1Cl | inactive: 0.72% |
| CC(C)c1ccc(NC2CCN(C(=O)OC(C)(C)C)CC2)cc1 | inactive: 0.48% |
| COc1cc(OC)c(C(=O)NCC2(N(C)C)CCCCC2)cc1OC | inactive: -0.02% |
| N/C(=N\O)c1c(N)no[n+]1[O-] | inactive: 0.53% |
| CCOC(=O)N1CCC(Nc2ccc(C)cc2)CC1 | inactive: 0.48% |
| CCc1cc(C(=O)NCC2(N3CCCCC3)CCCCC2)sc1C | inactive: 1.07% |
| O=C(OC1CN2CCC1CC2)C1c2ccccc2C=Cc2ccccc21 (stereo unspecified) | inactive: 0.02% |
| O=C(NCC1(N2CCOCC2)CCCCC1)c1cc(Br)ccc1Cl | inactive: 0.95% |
| COc1ccc(C(=O)NCC2(N3CCOCC3)CCCCC2)cc1OC | inactive: 0.89% |
| CCCN1CCC(Nc2cc(OC)cc(OC)c2)CC1 | inactive: 0.7% |

| SMILES | CPE inhibition |
| --- | --- |
| c1ccc(CN2CCC(Nc3ccccc3)CC2)cc1 | inactive: 1.08% |
| CN(C)C1(CNC(=O)c2cccc(C#N)c2)CCCCC1 | inactive: 2.15% |
| CC(C)(C)OC(=O)N1CCC(N(C(=O)c2ccccc2)c2ccc(Cl)cc2)CC1 | inactive: 3.64% |
| N#Cc1ccc(C(=O)NCC2(N3CCCCC3)CCCCC2)cc1 | inactive: -1.23% |
| CCN1CCC(Nc2cccc(F)c2)CC1 | inactive: 0.53% |
| CN(C)c1ccc(C(=O)NCC2(N3CCCCC3)CCCCC2)cc1 | inactive: -0.64% |
| O=C(NCC1(N2CCCCC2)CCCCC1)c1ccco1 | inactive: -0.54% |
| COc1cc(OC)cc(C(=O)NCC2(N3CCCCC3)CCCCC2)c1 | inactive: 2.94% |
| Fc1ccccc1NC1CCN(Cc2ccccc2)CC1 | inactive: -1.42% |
| Cc1ccc(C(=O)NCC2(N3CCCCC3)CCCCC2)o1 | inactive: -0.75% |
| CCC(CO)(C(=O)OC1CN2CCC1CC2)c1ccccc1 (stereo unspecified) | inactive: -1.19% |
| COc1cc(OC)cc(C(=O)NCC2(N3CCOCC3)CCCCC2)c1 | inactive: -0.42% |
| CCCOc1ccc(C)cc1CN(CCCl)CCCl | inactive: 0.67% |
| CN1CCC(Nc2ccc(Cl)cc2)CC1 | inactive: 0.34% |
| CN1CCC(Nc2ccc(F)c(Cl)c2)CC1 | inactive: -0.43% |
| CCOc1ncccc1C(=O)NCC1(N2CCOCC2)CCCCC1 | inactive: 1.11% |
| CCCOc1ccc(C(=O)NCC2(N(C)C)CCCCC2)cc1 | inactive: -2.11% |
| O=C(O)C1(Nc2ccccc2)CCN(Cc2ccccc2)CC1 | inactive: -1.03% |
| CC(C)(C)OC(=O)N1CCC(Nc2ccccc2)CC1 | inactive: 1.7% |
